Measured values from several laboratories, pooled; numbers as filed in NIAID ChemDB.

Common to all: whole-cell or culture tests; agent: Human cytomegalovirus; read by: plaque count; endpoint: EC50

ECn: concentration that inhibits the pathogen or its effect by n%. Blank or dashed fields: not listed here. a–b is a range or a potency band. Conditions beyond the fields shown may differ between rows.

SMILES | cells | strain or isolate | result
Nc1nc2c(ncn2COC(CO)CO)c(=O)[nH]1 | HEL | DAVIS | 1 µg/mL
O=c1[nH]c(=O)n([C@@H]2O[C@H](CO)[C@@H](O)[C@@H]2F)cc1I | MRC-5 | AD169 | 2.4 µg/mL
CN(C)c1cccc2c(S(=O)(=O)Nc3ccc(NC(=O)C(C)(C)CO)cc3)cccc12 |  | AD169 (resistant strain) | 14 µM
CCc1cn([C@H]2C[C@H](O)[C@@H](CO)O2)c(=S)nc1N | MRC-5 | 93-1R | >277.4 µM
CCCCN1C(=O)c2ccccc2N(C(=O)c2ccc(Cl)cc2)S1(=O)=O | MRC-5 | AD169 | 2.2 µM
CCCCCCCCCCCCCCCCCCOCCOP(=O)(O)CO[C@H](CO)Cn1ccc(N)nc1=O | MRC-5 | C9208/5-4-2 | 0.001 µM
Nc1ccn(C[C@H]2COP(=O)(O)CO2)c(=O)n1 | HEL | AD169 | 0.4 µg/mL
CCCc1cn([C@H]2C[C@H](O)[C@@H](CO)O2)c(=S)nc1N | MRC-5 | AD169 | >277.4 µM
O=C(NCc1ccc(Cl)cc1)c1cn2c3c(cc(CN4CCOCC4)cc3c1=O)OC(c1cccnc1)C2 | HFF | C8914-6 ganciclovir-resistant | >8.7 µM
Nc1nc2ncn(CCOCP(=O)(O)O)c2c(=O)[nH]1 | HEL | AD169 | 2 µg/mL
Cn1cc(C(=O)NCc2ccc(Cl)cc2)c(=O)c2cc(CN3CCOCC3)ccc21 | HFF | Toledo | 7.7 µM
C=Cc1cn([C@@H]2O[C@H](CO)[C@@H](O)[C@@H]2O)c(=S)nc1N | MRC-5 | 93-1R | 52 µM
COCCOCn1cc(C(N)=S)c2c(N)ncnc21 | HFF | TOWNE | 1 µM
Nc1nc(NC2CC2)c2ncn(/C=C3\CC3(CO)CO)c2n1 | HFF | AD169 | 377 µM
CC(C)[C@H](NC(=O)CN)C(=O)OCC(COC(=O)[C@@H](NC(=O)CN)C(C)C)OCn1cnc2c(=O)[nH]c(N)nc21 | HFF |  | 3.6 µM
Cc1ccc(C)c(NC(=O)CN2C(=O)c3ccccc3S2(=O)=O)c1 | HEL | AD169 | >100 µM
Nc1nc2c(ncn2/C=C2/CC2(CO)CO)c(=O)[nH]1 | HFF | C8805 37-1-1 (ganciclovir- foscarnet-resistant) | 2.7 µM
C/C(=N/Nc1nc(-c2ccc(C)cc2)cs1)c1ccc(NC(=O)CN2C(=O)c3ccccc3S2(=O)=O)cc1 | HEL | AD169 | 20 µM
Nc1nc(=S)n([C@@H]2O[C@H](CO)[C@@H](O)[C@@H]2O)cc1/C=C/Br | MRC-5 | 93-1R | >213 µM
O=C(NCCc1ccccc1)C1=Cc2ccncc2CC1 | MRC-5 | AD169 | 13.6 µM
Nc1nc2c(ncn2C=C2CC2CO)c(=O)[nH]1 |  | VR4991 (ganciclovir-resistant) | 1.1 µM
CCc1cn([C@@H]2O[C@H](CO)[C@@H](O)[C@@H]2O)c(=S)nc1N | MRC-5 | 93-1R | >264.9 µM
Nc1nc2c(ncn2COC(COP(=O)(O)O)COP(=O)(O)O)c(=O)[nH]1 | MRC-5 | DAVIS | 6.1 µM
Nc1ccn(C[C@@H](CO)OCP(=O)(O)O)c(=O)n1 | HEL | DAVIS | 0.15 µg/mL
COc1cc(OC)c(NC(=S)Nc2ccc(NC(C)=O)cc2)cc1Cl |  | 50 isolates | 0.166 µM
CC(C)Oc1ccccc1CNC(=O)c1ccc2cnccc2n1 | HS68 | AD169 | 0.02 µM
Cc1cn([C@H]2C[C@H](O)[C@@H](CO)O2)c(=S)[nH]c1=O | MRC-5 | AD169 | 23 µM
CCOC1=NS(=O)(=O)N(Cc2ccc(Cl)c(Cl)c2)c2ccccc21 | MRC-5 | AD169 | 2.5 µM
CCCCCCCCCCCCCCCCOCCCOP(=O)(O)CO[C@H](CO)Cn1ccc(N)nc1=O | MRC-5 | 759D100 drug-resistant mutant | 0.0065 µM
CC(C)[C@H](N)C(=O)N[C@H](C(=O)OCC(COC(=O)[C@@H](NC(=O)[C@@H](N)C(C)C)C(C)C)OCn1cnc2c(=O)[nH]c(N)nc21)C(C)C | HFF |  | 4 µM
COc1ccccc1CNC(=O)C1=Cc2ccncc2CC1 | MRC-5 | AD169 | 15.5 µM
CC(C)NS(=O)(=O)c1ccccc1C(=O)N/N=C/c1ccccc1 | HEL | DAVIS | >100 µM
C=Cc1cn([C@H]2C[C@H](O)[C@@H](CO)O2)c(=S)[nH]c1=O | MRC-5 | 93-1R | >277.6 µM
Nc1nc2c(ncn2COC(CO)CCP(=O)(O)O)c(=O)[nH]1 | MRC-5 | DAVIS | 5.8 µM
CC#Cc1cn([C@@H]2O[C@H](CO)[C@@H](O)[C@@H]2O)c(=O)[nH]c1=O | VERO |  | >100 µM
CCCCN1C(=O)c2ccccc2N(CCc2ccccc2)S1(=O)=O | MRC-5 | AD169 | 19.1 µM
C[C@H]1[C@H](O)[C@@H](CO)O[C@H]1n1cc(I)c(N)nc1=O | MRC-5 | AD169 | >100 µg/mL
Nc1nc2c(ncn2C[C@@H]2CC[C@H](P(=O)(O)O)O2)c(=O)[nH]1 | WI-38 |  | 0.5–1 µg/mL
CC(C)NS(=O)(=O)c1ccccc1C(=O)NNC(=O)c1ccc(Cl)cc1 | HEL | AD169 | >100 µM
C[C@H]1[C@H](O)[C@@H](CO)O[C@H]1n1cc(I)c(=O)[nH]c1=O | MRC-5 | AD169 | >61.27 µg/mL
Oc1ccc(-c2nc(-c3ccc(F)cc3)c(-c3ccncc3)[nH]2)cc1 | HEL | TOWNE | 10–100 µM
Cc1ccc(Cn2c(N)c(C#N)c3c(N)ncnc32)cc1 | HFF | TOWNE | 0.8 µM
Nc1nc2c(ncn2CC(CO)OCP(=O)(O)O)c(=O)[nH]1 | HEL | DAVIS | 0.7 µg/mL
CCCN1C(=O)c2ccccc2N(Cc2ccc(Cl)cc2)S1(=O)=O | MRC-5 | AD169 | 6.8 µM
OC[C@H]1O[C@@H](c2c(Cl)[nH]c3cc(Cl)c(Cl)cc23)[C@H](O)[C@@H]1O | HFF |  | >100 µM
Nc1ccn(CSC(CO)CO)c(=O)n1 | HFF | AD169 | >100 µM
CCN1C(=O)c2ccccc2N(Cc2ccc(Cl)cc2)S1(=O)=O | MRC-5 | AD169 | 2.8 µM

Again, the opening 4 rows:

Nc1nc2c(ncn2COC(CO)CO)c(=O)[nH]1 ; cells: HEL ; strain or isolate: DAVIS ; result: 1 µg/mL
O=c1[nH]c(=O)n([C@@H]2O[C@H](CO)[C@@H](O)[C@@H]2F)cc1I ; cells: MRC-5 ; strain or isolate: AD169 ; result: 2.4 µg/mL
CN(C)c1cccc2c(S(=O)(=O)Nc3ccc(NC(=O)C(C)(C)CO)cc3)cccc12 ; strain or isolate: AD169 (resistant strain) ; result: 14 µM
CCc1cn([C@H]2C[C@H](O)[C@@H](CO)O2)c(=S)nc1N ; cells: MRC-5 ; strain or isolate: 93-1R ; result: >277.4 µM